Chains of the proteins cited; added tags and fusions are not shown. Residues count along the entry.
UniProt Q00975, whole entry: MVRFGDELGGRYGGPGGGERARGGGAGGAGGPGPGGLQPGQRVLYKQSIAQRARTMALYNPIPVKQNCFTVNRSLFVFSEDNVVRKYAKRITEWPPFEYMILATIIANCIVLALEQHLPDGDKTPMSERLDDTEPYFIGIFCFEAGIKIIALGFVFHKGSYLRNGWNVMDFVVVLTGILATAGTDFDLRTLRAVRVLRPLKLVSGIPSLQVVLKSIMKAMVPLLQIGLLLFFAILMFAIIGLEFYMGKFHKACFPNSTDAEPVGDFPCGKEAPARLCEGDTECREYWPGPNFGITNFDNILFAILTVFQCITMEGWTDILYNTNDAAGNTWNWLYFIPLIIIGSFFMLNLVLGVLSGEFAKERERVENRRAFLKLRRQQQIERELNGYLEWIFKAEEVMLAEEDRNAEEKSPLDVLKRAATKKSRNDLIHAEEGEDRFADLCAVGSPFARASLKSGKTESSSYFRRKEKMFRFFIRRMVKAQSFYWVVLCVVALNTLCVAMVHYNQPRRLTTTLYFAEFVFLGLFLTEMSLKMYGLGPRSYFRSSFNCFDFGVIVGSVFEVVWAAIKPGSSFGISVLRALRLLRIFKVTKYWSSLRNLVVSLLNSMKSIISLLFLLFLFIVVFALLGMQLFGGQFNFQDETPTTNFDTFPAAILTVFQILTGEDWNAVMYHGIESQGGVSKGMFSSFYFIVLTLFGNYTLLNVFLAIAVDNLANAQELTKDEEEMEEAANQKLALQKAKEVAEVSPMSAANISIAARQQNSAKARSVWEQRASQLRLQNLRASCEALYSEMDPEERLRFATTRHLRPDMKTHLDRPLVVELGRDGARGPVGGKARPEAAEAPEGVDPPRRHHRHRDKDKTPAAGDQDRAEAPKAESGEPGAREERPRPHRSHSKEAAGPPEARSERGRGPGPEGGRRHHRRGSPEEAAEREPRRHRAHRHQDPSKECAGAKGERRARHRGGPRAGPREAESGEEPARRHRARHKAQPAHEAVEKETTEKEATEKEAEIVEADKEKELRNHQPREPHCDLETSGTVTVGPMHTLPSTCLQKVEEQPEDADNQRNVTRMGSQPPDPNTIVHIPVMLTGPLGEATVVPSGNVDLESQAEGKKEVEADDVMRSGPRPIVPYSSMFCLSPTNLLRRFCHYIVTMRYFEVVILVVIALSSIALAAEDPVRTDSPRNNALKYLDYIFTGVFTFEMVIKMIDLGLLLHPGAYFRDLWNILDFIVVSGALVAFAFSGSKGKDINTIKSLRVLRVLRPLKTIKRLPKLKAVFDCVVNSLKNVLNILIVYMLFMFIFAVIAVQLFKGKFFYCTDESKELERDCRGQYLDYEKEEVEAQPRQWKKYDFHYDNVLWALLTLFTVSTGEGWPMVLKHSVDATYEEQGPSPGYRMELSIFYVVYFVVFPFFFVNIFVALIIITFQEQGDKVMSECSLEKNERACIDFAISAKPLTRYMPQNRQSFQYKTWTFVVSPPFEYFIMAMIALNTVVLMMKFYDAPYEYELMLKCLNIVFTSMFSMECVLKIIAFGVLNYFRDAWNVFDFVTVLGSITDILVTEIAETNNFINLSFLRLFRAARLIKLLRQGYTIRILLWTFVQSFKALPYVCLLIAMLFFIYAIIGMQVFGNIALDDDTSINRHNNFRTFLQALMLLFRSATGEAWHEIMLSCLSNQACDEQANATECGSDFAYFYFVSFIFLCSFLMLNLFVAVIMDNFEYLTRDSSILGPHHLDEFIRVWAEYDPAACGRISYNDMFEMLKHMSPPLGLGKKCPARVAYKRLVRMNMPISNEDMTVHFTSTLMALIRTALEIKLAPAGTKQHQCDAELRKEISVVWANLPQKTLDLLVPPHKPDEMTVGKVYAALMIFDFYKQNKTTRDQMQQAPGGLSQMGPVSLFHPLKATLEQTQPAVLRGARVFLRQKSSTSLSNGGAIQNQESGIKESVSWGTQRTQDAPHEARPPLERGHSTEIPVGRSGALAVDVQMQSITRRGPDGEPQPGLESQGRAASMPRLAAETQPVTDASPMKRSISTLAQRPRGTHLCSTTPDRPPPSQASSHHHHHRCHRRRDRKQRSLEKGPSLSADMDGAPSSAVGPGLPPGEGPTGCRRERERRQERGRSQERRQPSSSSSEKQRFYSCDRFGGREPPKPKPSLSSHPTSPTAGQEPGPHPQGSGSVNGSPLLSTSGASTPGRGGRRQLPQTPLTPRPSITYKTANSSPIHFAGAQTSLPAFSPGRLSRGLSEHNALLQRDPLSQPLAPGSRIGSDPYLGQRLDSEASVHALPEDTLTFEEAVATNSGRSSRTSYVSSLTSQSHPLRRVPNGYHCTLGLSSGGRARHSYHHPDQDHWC
UniProt P54289, 25-1103 partner limits assumed: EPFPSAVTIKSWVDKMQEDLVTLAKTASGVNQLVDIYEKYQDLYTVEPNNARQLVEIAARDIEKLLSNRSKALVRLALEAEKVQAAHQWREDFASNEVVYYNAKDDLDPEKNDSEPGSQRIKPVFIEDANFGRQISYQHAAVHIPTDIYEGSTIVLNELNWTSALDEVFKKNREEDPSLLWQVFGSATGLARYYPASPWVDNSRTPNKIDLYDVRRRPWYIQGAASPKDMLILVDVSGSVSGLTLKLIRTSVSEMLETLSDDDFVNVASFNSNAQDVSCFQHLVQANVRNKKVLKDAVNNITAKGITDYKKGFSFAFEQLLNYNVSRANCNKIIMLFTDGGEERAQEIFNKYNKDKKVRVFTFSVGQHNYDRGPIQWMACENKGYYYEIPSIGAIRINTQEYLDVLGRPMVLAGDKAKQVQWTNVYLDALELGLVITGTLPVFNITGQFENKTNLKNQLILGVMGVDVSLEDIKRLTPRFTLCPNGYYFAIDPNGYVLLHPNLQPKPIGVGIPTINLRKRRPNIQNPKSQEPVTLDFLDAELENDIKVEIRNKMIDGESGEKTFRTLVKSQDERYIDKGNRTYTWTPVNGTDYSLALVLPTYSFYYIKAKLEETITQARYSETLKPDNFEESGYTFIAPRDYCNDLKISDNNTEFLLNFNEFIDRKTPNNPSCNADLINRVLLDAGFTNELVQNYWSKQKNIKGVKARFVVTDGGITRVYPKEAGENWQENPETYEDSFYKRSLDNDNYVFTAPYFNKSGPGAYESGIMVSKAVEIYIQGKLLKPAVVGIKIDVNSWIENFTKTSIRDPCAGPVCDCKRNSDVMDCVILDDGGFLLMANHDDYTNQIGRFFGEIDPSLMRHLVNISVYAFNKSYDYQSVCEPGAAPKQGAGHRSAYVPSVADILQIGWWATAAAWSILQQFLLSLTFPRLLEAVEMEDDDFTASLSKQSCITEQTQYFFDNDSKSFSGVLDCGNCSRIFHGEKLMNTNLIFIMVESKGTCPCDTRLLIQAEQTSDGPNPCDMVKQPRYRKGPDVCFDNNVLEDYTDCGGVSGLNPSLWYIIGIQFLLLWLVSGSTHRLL
UniProt Q08289, whole entry partner: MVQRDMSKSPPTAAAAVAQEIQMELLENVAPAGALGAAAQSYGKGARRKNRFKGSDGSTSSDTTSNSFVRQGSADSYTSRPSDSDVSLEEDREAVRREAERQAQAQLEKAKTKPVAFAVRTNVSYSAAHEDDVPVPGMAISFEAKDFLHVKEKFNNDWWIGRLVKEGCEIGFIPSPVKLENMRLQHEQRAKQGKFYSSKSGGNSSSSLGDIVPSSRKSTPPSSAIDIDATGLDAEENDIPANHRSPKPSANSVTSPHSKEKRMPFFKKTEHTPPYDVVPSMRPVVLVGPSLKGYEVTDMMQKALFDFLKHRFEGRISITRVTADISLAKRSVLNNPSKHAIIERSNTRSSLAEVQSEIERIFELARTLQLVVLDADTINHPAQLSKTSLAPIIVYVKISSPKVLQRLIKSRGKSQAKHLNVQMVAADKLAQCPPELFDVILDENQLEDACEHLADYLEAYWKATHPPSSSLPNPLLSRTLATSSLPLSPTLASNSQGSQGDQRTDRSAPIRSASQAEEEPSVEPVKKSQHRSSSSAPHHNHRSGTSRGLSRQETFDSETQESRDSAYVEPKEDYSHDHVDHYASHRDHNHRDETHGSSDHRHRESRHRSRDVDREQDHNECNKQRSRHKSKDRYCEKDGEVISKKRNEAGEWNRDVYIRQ

In paper PMC3395435 (Biopolymers, 2012):

Molecular target: N-type calcium channel (CaV2.2) (Homo sapiens, UniProt Q00975)
Format: cell-based

ω-conotoxin GVIA
blocking time constant τ, GVIA versus Sec-GVIA: not statistically different
